Patent US20090197856A1, “ANTIVIRAL COMPOUNDS” (Genelabs Technologies, Inc., priority 2007, published 2009)

Target: HCV-NS5b (Hepatitis C virus genotype 1b, UniProt Q9WMX2)
Assay: HCV-NS5b enzyme assay using homopolymer substrate
Assay type: biochemical
Conditions: [3H]-UTP incorporation, 30° C., 90 minutes
Excerpt: The coding sequence of NS5b protein was cloned by PCR from pFKI389luc/NS3-3′/ET as described by Lohmann, V., et al. (1999) Science 285, 110-113 using the primers shown on page 266 of WO 2005/012288
The cloned fragment is missing the C terminus 21 amino acid residues. The cloned fragment was inserted into an IPTG-inducible (isopropyl-β-D-thiogalactopyranoside) expression plasmid that provides an epitope tag (His)6 at the carboxy terminus of the protein.
The recombinant enzyme was expressed in XL-1 cells and after induction of expression, the protein was purified using affinity chromatography on a nickel-NTA (nitrilotriacetic acid) column. Storage condition was 10 mM Tris-HCl pH 7.5, 50 mM NaCl, 0.1 mM EDTA (ethylenediaminetetraacetic acid), 1 mM DTT (dithiothreotol), 20% glycerol at −20° C.
The polymerase activity was assayed by measuring incorporation of radiolabeled UTP into a RNA product using a biotinylated, homopolymeric template. The template was formed by annealing adenosine homopolymer to uridine 20-mer capped with a 5′-biotin group (biotin-U^20) in the ratio of 1:4. […] Incorporation of radioactivity was determined by scintillation counting. […]
The table below lists the IC50 values of compounds determined using the homopolymer substrates.

## O=C(O)c1ccc2c(C3CCCCC3)c3n(c2c1)CCCCn1cc(CN2CCOCC2)c2cccc-3c21
  IC50: 128 nM

Structures were worked out from names or drawings and are uncertain.
